Compound potency records, mixed from different reports. Data source: NIAID ChemDB in PubChem.

Shared fields: target-level tests; species: HIV-1; target: Integrase; endpoint: IC50

Rows are shuffled and stem from different studies. An empty or dashed field is not shown. Two numbers with a dash give a range or band. ICn: concentration for n% inhibition.

structure,changes,method,result
O=C(/C=C/c1ccc(O)c(O)c1)OCCc1ccc(NC(=S)SCCO)cc1,C65S,3′ processing,7 µM
O=C1c2c(O)c(=O)ccn2CCN1CCCc1ccccc1,-,ELISA,0.01–0.1 µM
O=C(C1=NS(=O)(=O)c2ccc(Cl)cc2S1)c1ccc2ccccc2c1,INTG-C65S,strand transfer,35 µM
CCN1C/C(=C\c2ccc([N+](=O)[O-])c(O)c2)C(=O)/C(=C/c2ccc([N+](=O)[O-])c(O)c2)C1,-,strand transfer,>100 µM
N#C/C(=C\c1ccc(O)c(O)c1)C(=O)Nc1cccc(C(=O)O)c1,-,strand transfer,5–10 µM
Cc1cc2c(cc1Cl)SC(C(=O)c1ccc([N+](=O)[O-])cc1)=NS2(=O)=O,INTG-C65S,strand transfer,11 µM
CC(C)C(=O)Nc1cn2c(c(O)c1=O)C(=O)N(Cc1ccc(F)c(Cl)c1)CC2,-,ELISA,0.01–0.1 µM
Cc1cc2c(cc1Cl)SC(C(=O)c1ccccc1)=NS2(=O)=O,INTG-C65S,strand transfer,90 µM
O=C(/C=C/c1ccccc1)OCCc1ccc(N=C=S)cc1,-,3′ processing,>100 µM
COc1ccc(/C=C2\C(=O)N(c3ccccc3)NC2C(F)(F)F)cc1OCc1ccc(F)cc1,-,strand transfer,>100 µM
COC(=O)/C(O)=C/C(=O)/C=C(\O)c1ccccc1,-,strand transfer,80 µM
O=C(O)CC1C/C(=C\c2cc(O)c(O)c(O)c2)C(=O)/C(=C/c2cc(O)c(O)c(O)c2)C1,-,disintegration,0.5 µM
CN(C)CCCNC(=O)c1ccc2nc(-c3ccc4nc(-c5ccc(OCCOCCOCCOc6ccc(-c7nc8ccc(-c9nc%10ccc(C(=O)NCCCN(C)C)cc%10[nH]9)cc8[nH]7)cc6)cc5)[nH]c4c3)[nH]c2c1,-,3′ processing,10 µM
N#C/C(=C\c1ccc(O)c(O)c1)C(=O)NCCCCc1ccccc1,-,3′ processing / substrate cleavage,10–100 µM
COc1ccc(C(=O)C2=NS(=O)(=O)c3cc(C)c(Cl)cc3S2)cc1,-,3′ processing,30 µM
O=C(/C=C(\O)c1ccccc1Cl)C(=O)N1CCN(C(=O)C(=O)/C=C(\O)c2ccccc2Cl)CC1,-,strand transfer,>100 µM
O=C1/C(=C/c2ccc(Cl)c(Cl)c2)CSC/C1=C\c1ccc(Cl)c(Cl)c1,-,3′ processing,>100 µM
O=c1c(-c2cnccn2)cn2ccn(Cc3cccc(Cl)c3)c(=O)c2c1O,-,ELISA,<0.01 µM
Cn1c(O)c(C(=O)C(=O)O)c2ccccc21,-,strand transfer,160 µM
O=C1/C(=C/c2cc(O)c(O)c(O)c2)CNC/C1=C\c1cc(O)c(O)c(O)c1,-,strand transfer,0.5 µM
Cn1c(/C(O)=C/C(=O)C(=O)O)cc2cc3c(cc21)OCO3,-,strand transfer,2 µM
COc1cccc(CN2CCc3cn(C)c(=O)c(O)c3C2=O)c1,-,ELISA,0.01–0.1 µM
C=c1/c(=C\c2ccc(OC)c(OCc3ccc(F)cc3)c2)c(CCOC(C)=O)nn1-c1ccccc1,-,3′ processing,>100 µM
N#C/C(=C\c1ccc(O)c(O)c1)C(=O)NCCCNC(=O)/C(C#N)=C/c1ccc(O)c(O)c1,-,3′ processing / substrate cleavage,1.9 µM
O=C(C1=NS(=O)(=O)c2ccc(Cl)cc2S1)c1ccc(Cl)cc1,-,3′ processing,100 µM
O=C(/C=C/c1ccc(O)c(O)c1)OCCc1cccc(N=C=S)c1,C65S,3′ processing,8 µM
CC(C)(C)C(=O)c1cn2c(c(O)c1=O)C(=O)N(Cc1cccc(Cl)c1)CC2,-,ELISA,0.01–0.1 µM
Cc1cc2c(cc1Cl)SC(C(=O)c1cccc([N+](=O)[O-])c1)=NS2(=O)=O,INTG-C65S,strand transfer,80 µM
CC(O)c1cc(=O)c(O)c2n1CCN(Cc1ccc(Cl)c(Cl)c1)C2=O,-,ELISA,0.01–0.1 µM
CC(C)CCC[C@@H](C)[C@H]1CC[C@H]2[C@@H]3CC[C@H]4C[C@@H](CCC=C(c5cc(Cl)c(O)c(C(=O)O)c5)c5cc(Cl)c(O)c(C(=O)O)c5)CC[C@]4(C)[C@H]3CC[C@]12C,-,3′ processing,~100 µM
O=C(/C=C/c1ccc(O)c(O)c1)Oc1ccc2c(N=C=S)cccc2c1,C65S,3′ processing,7 µM
N#C/C(=C\c1ccc(O)c(O)c1)C(=O)c1ccc(O)c(O)c1,-,strand transfer,0.5 µM
OC1/C(=C/c2ccc(Cl)c(Cl)c2)CSC/C1=C\c1ccc(Cl)c(Cl)c1,-,3′ processing,>100 µM
CC(C)(C)OC(=O)N1CCC(NC(=O)C(=O)/C=C(\O)c2ccc(F)cc2)CC1,-,strand transfer,100 µM
COc1ccc(/C=C2\C(=O)N(c3cccc(C)c3)NC2C(F)(F)F)cc1OCc1ccc(F)cc1,-,strand transfer,>100 µM
O=C1/C(=C/c2cc(O)c(O)c(O)c2)CC(C(=O)O)C/C1=C\c1cc(O)c(O)c(O)c1,-,disintegration,1.2 µM
CCOC(=O)/C(O)=C(\C#N)c1cn(CC)c2ccccc12,-,strand transfer,225 µM
O=C(/C=C/c1ccc(O)c(O)c1)OCCc1ccc(N=C=S)cc1,C56S,3′ processing,18 µM
O=C(NCc1ccccc1F)c1cn2c(c(O)c1=O)C(=O)N(Cc1ccc(F)cc1)CC2,-,ELISA,<0.01 µM
O=C1/C(=C/c2ccc(O)c(O)c2)CN(Cc2ccccc2)C/C1=C\c1ccc(O)c(O)c1,-,3′ processing,1.7 µM
O=C1c2c(O)c(=O)ccn2C(c2ccccc2)CN1Cc1ccc(Cl)c(Cl)c1,-,ELISA,0.01–0.1 µM
CCN1C/C(=C\c2cc(O)c(O)c(O)c2)C(=O)/C(=C/c2cc(O)c(O)c(O)c2)C1,-,disintegration,0.9 µM

6 of the rows above, restated:

structure,changes,method,result
O=C(NCc1ccccc1F)c1cn2c(c(O)c1=O)C(=O)N(Cc1ccc(F)cc1)CC2,-,ELISA,<0.01 µM
O=C(O)CC1C/C(=C\c2cc(O)c(O)c(O)c2)C(=O)/C(=C/c2cc(O)c(O)c(O)c2)C1,-,disintegration,0.5 µM
O=C(/C=C/c1ccc(O)c(O)c1)Oc1ccc2c(N=C=S)cccc2c1,C65S,3′ processing,7 µM
O=C1/C(=C/c2ccc(O)c(O)c2)CN(Cc2ccccc2)C/C1=C\c1ccc(O)c(O)c1,-,3′ processing,1.7 µM
CC(C)CCC[C@@H](C)[C@H]1CC[C@H]2[C@@H]3CC[C@H]4C[C@@H](CCC=C(c5cc(Cl)c(O)c(C(=O)O)c5)c5cc(Cl)c(O)c(C(=O)O)c5)CC[C@]4(C)[C@H]3CC[C@]12C,-,3′ processing,~100 µM
CCOC(=O)/C(O)=C(\C#N)c1cn(CC)c2ccccc12,-,strand transfer,225 µM